Experiments:
[1] = Antagonist activity at rat alpha6alpha3beta4 nAChR expressed in Xenopus laevis oocytes assessed as inhibition of Ach-induced response at -70 mV holding potential by two electrode voltage-clamp assay
[2] = Antagonist activity at mouse alpha1beta1epsilondelta nAChR expressed in Xenopus laevis oocytes assessed as inhibition of Ach-induced response at -70 mV holding potential by two electrode voltage-clamp assay

Row | SMILES | IC50 [1] [µM] | IC50 [2] [nM]
1 | CC[C@H](C)[C@H](NC(=O)[C@H](CCCNC(=N)N)NC(=O)[C@H](CCCNC(=N)N)NC(=O)[C@H](CO)NC(=O)[C@H](Cc1ccc(O)cc1)NC(=O)[C@H](CCCNC(=N)N)NC(=O)[C@H](CCCNC(=N)N)NC(=O)[C@H](CCCNC(=N)N)NC(=O)[C@H](CCCNC(=N)N)NC(=O)[C@H](CC(=O)O)NC(=O)[C@H](Cc1ccc(O)cc1)NC(=O)[C@@H]1CCCN1C(=O)[C@H](CO)NC(=O)[C@H](CCCNC(=N)N)NC(=O)[C@H](C)NC(=O)[C@H](Cc1ccc(O)cc1)NC(=O)[C@H](CCCNC(=N)N)NC(=O)CNC(=O)[C@H](CO)NC(=O)[C@H](CO)NC(=O)[C@H](CCCNC(=N)N)NC(=O)[C@H](C)NC(=O)[C@@H](N)[C@@H](C)O)C(=O)N[C@H](C(=O)N[C@@H](CC(=O)O)C(=O)N[C@@H](C)C(=O)N[C@@H](CO)C(=O)N[C@H](C(=O)O)C(C)C)[C@@H](C)O | > 10 | 2690
2 | CC[C@H](C)[C@H](NC(=O)[C@H](CCCNC(=N)N)NC(=O)[C@H](CCCNC(=N)N)NC(=O)[C@H](CO)NC(=O)[C@H](Cc1ccc(O)cc1)NC(=O)[C@H](CCCNC(=N)N)NC(=O)[C@H](CCCNC(=N)N)NC(=O)[C@H](CCCNC(=N)N)NC(=O)[C@H](CCCNC(=N)N)NC(=O)[C@H](CC(=O)O)NC(=O)[C@H](Cc1ccc(O)cc1)NC(=O)[C@@H]1CCCN1C(=O)[C@H](CO)NC(=O)[C@H](CCCNC(=N)N)NC(=O)[C@H](CO)NC(=O)[C@H](Cc1ccc(O)cc1)NC(=O)[C@H](CCCNC(=N)N)NC(=O)CNC(=O)[C@H](CO)NC(=O)[C@H](CO)NC(=O)[C@H](CCCNC(=N)N)NC(=O)[C@H](CO)NC(=O)[C@@H](N)[C@@H](C)O)C(=O)N[C@H](C(=O)N[C@@H](CC(=O)O)C(=O)N[C@@H](C)C(=O)N[C@@H](CO)C(=O)N[C@H](C(=O)O)C(C)C)[C@@H](C)O | 7.34 | 2730
3 | CC[C@H](C)[C@H](NC(=O)[C@H](CCCNC(=N)N)NC(=O)[C@H](CCCNC(=N)N)NC(=O)[C@H](CO)NC(=O)[C@H](Cc1ccc(O)cc1)NC(=O)[C@H](CCCNC(=N)N)NC(=O)[C@H](CCCNC(=N)N)NC(=O)[C@H](CCCNC(=N)N)NC(=O)[C@H](CCCNC(=N)N)NC(=O)[C@H](CC(=O)O)NC(=O)[C@H](Cc1ccc(O)cc1)NC(=O)[C@@H]1CCCN1C(=O)[C@H](CO)NC(=O)[C@H](CCCNC(=N)N)NC(=O)[C@@H]1CSSC[C@H](NC(=O)[C@@H](N)[C@@H](C)O)C(=O)N[C@@H](CCCNC(=N)N)C(=O)N[C@@H](CO)C(=O)N[C@@H](CO)C(=O)NCC(=O)N[C@@H](CCCNC(=N)N)C(=O)N[C@@H](Cc2ccc(O)cc2)C(=O)N1)C(=O)N[C@H](C(=O)N[C@@H](CC(=O)O)C(=O)N[C@@H](C)C(=O)N[C@@H](CO)C(=O)N[C@H](C(=O)O)C(C)C)[C@@H](C)O | 5.57 | 2290
4 | CC[C@H](C)[C@H](NC(=O)[C@H](CCCNC(=N)N)NC(=O)[C@H](CCCNC(=N)N)NC(=O)[C@@H]1CSSC[C@H](NC(=O)[C@H](Cc2ccc(O)cc2)NC(=O)[C@H](CCCNC(=N)N)NC(=O)CNC(=O)[C@H](CO)NC(=O)[C@H](CO)NC(=O)[C@H](CCCNC(=N)N)NC(=O)[C@H](C)NC(=O)[C@@H](N)[C@@H](C)O)C(=O)N[C@@H](CCCNC(=N)N)C(=O)N[C@@H](CO)C(=O)N2CCC[C@H]2C(=O)N[C@@H](Cc2ccc(O)cc2)C(=O)N[C@@H](CC(=O)O)C(=O)N[C@@H](CCCNC(=N)N)C(=O)N[C@@H](CCCNC(=N)N)C(=O)N[C@@H](CCCNC(=N)N)C(=O)N[C@@H](CCCNC(=N)N)C(=O)N[C@@H](Cc2ccc(O)cc2)C(=O)N1)C(=O)N[C@H](C(=O)N[C@@H](CC(=O)O)C(=O)N[C@@H](C)C(=O)N[C@@H](C)C(=O)N[C@H](C(=O)O)C(C)C)[C@@H](C)O | 6.19 | 1970
5 | CC[C@H](C)[C@H](NC(=O)[C@H](CCCNC(=N)N)NC(=O)[C@H](CCCNC(=N)N)NC(=O)[C@@H]1CSSC[C@H](NC(=O)[C@H](Cc2ccc(O)cc2)NC(=O)[C@H](CCCNC(=N)N)NC(=O)CNC(=O)[C@H](CO)NC(=O)[C@H](CO)NC(=O)[C@H](CCCNC(=N)N)NC(=O)[C@H](CO)NC(=O)[C@@H](N)[C@@H](C)O)C(=O)N[C@@H](CCCNC(=N)N)C(=O)N[C@@H](CO)C(=O)N2CCC[C@H]2C(=O)N[C@@H](Cc2ccc(O)cc2)C(=O)N[C@@H](CC(=O)O)C(=O)N[C@@H](CCCNC(=N)N)C(=O)N[C@@H](CCCNC(=N)N)C(=O)N[C@@H](CCCNC(=N)N)C(=O)N[C@@H](CCCNC(=N)N)C(=O)N[C@@H](Cc2ccc(O)cc2)C(=O)N1)C(=O)N[C@H](C(=O)N[C@@H](CC(=O)O)C(=O)N[C@@H](C)C(=O)N[C@@H](CO)C(=O)N[C@H](C(=O)O)C(C)C)[C@@H](C)O | 4.36 | 1450
6 | CC[C@H](C)[C@H](NC(=O)[C@H](CCCNC(=N)N)NC(=O)[C@H](CCCNC(=N)N)NC(=O)[C@H](C)NC(=O)[C@H](Cc1ccc(O)cc1)NC(=O)[C@H](CCCNC(=N)N)NC(=O)[C@H](CCCNC(=N)N)NC(=O)[C@H](CCCNC(=N)N)NC(=O)[C@H](CCCNC(=N)N)NC(=O)[C@H](CC(=O)O)NC(=O)[C@H](Cc1ccc(O)cc1)NC(=O)[C@@H]1CCCN1C(=O)[C@H](CO)NC(=O)[C@H](CCCNC(=N)N)NC(=O)[C@H](C)NC(=O)[C@H](Cc1ccc(O)cc1)NC(=O)[C@H](CCCNC(=N)N)NC(=O)CNC(=O)[C@H](CO)NC(=O)[C@H](CO)NC(=O)[C@H](CCCNC(=N)N)NC(=O)[C@H](C)NC(=O)[C@@H](N)[C@@H](C)O)C(=O)N[C@H](C(=O)N[C@@H](CC(=O)O)C(=O)N[C@@H](C)C(=O)N[C@@H](C)C(=O)N[C@H](C(=O)O)C(C)C)[C@@H](C)O | > 10 | 2030
7 | CC[C@H](C)[C@@H]1NC(=O)[C@H](CCCNC(=N)N)NC(=O)[C@H](CCCNC(=N)N)NC(=O)[C@H](C)NC(=O)[C@H](Cc2ccc(O)cc2)NC(=O)[C@H](CCCNC(=N)N)NC(=O)[C@H](CCCNC(=N)N)NC(=O)[C@H](CCCNC(=N)N)NC(=O)[C@H](CCCNC(=N)N)NC(=O)[C@H](CC(=O)O)NC(=O)[C@H](Cc2ccc(O)cc2)NC(=O)[C@@H]2CCCN2C(=O)[C@H](CO)NC(=O)[C@H](CCCNC(=N)N)NC(=O)[C@H](C)NC(=O)[C@H](Cc2ccc(O)cc2)NC(=O)[C@H](CCCNC(=N)N)NC(=O)CNC(=O)[C@H](CO)NC(=O)[C@H](CO)NC(=O)[C@H](CCCNC(=N)N)NC(=O)[C@@H](NC(=O)[C@@H](N)[C@@H](C)O)CSSC[C@@H](C(=O)N[C@H](C(=O)O)C(C)C)NC(=O)[C@H](C)NC(=O)[C@H](CC(=O)O)NC(=O)[C@H]([C@@H](C)O)NC1=O | 3.78 | 700
8 | CC[C@H](C)[C@H](NC(=O)[C@H](CCCNC(=N)N)NC(=O)[C@H](CCCNC(=N)N)NC(=O)[C@H](C)NC(=O)[C@H](Cc1ccc(O)cc1)NC(=O)[C@H](CCCNC(=N)N)NC(=O)[C@H](CCCNC(=N)N)NC(=O)[C@H](CCCNC(=N)N)NC(=O)[C@H](CCCNC(=N)N)NC(=O)[C@H](CC(=O)O)NC(=O)[C@H](Cc1ccc(O)cc1)NC(=O)[C@@H]1CCCN1C(=O)[C@H](CO)NC(=O)[C@H](CCCNC(=N)N)NC(=O)[C@@H]1CSSC[C@H](NC(=O)[C@@H](N)[C@@H](C)O)C(=O)N[C@@H](CCCNC(=N)N)C(=O)N[C@@H](CO)C(=O)N[C@@H](CO)C(=O)NCC(=O)N[C@@H](CCCNC(=N)N)C(=O)N[C@@H](Cc2ccc(O)cc2)C(=O)N1)C(=O)N[C@H](C(=O)N[C@@H](CC(=O)O)C(=O)N[C@@H](C)C(=O)N[C@@H](C)C(=O)N[C@H](C(=O)O)C(C)C)[C@@H](C)O | 8.68 | 2490

Source: ChEMBL document CHEMBL4376895, “Structure and Activity Studies of Disulfide-Deficient Analogues of αO-Conotoxin GeXIVA” (J Med Chem, 2020)
